Source: article PMC8026400, “Osmium–arene complexes with high potency towards Mycobacterium tuberculosis” (Metallomics: Integrated Biometal Science, 2021)
Where two headings read alike, the source gives them in different places.

Tests used:
Mtb H37Rv cells = assay: Os uptake in Mtb (ICP-MS, normalized to P); type: cell-based, Mycobacterium tuberculosis; conditions: for Temperature-dependent Os accumulation: no shaking; for Temperature-dependent Os accumulation / Time-dependent Os accumulation: 0.5× MIC; for Time-dependent Os accumulation: shaking
mammalian cells = test system: mammalian cells; parameters: method as in PMID 31528927; conditions: cited from earlier work

CN(C)c1ccc(N=Nc2ccccn2)cc1.Cc1ccc(C(C)C)cc1.F[P-](F)(F)(F)(F)F.[I][Os+] [Complex 2, [Os(AzPy-NMe2)I(p-cymene)]PF6]
Temperature-dependent Os accumulation (Mtb H37Rv cells; 0 h, 277 K): 0.000 ± 0.009 µg Os / mg P
Temperature-dependent Os accumulation (Mtb H37Rv cells; 0 h, 310 K): 0.02 ± 0.02 µg Os / mg P
Time-dependent Os accumulation (Mtb H37Rv cells; 0 h, 310 K): 0 ± 0.009 µg Os / mg P
time of Os accumulation maximum (Mtb H37Rv cells; 0.625 µM (0.5× MIC), 310 K, without shaking): ~17 h
Temperature-dependent Os accumulation (Mtb H37Rv cells; 1.5 h, 277 K): 0.024 ± 0.001 µg Os / mg P
Temperature-dependent Os accumulation (Mtb H37Rv cells; 1.5 h, 310 K): 0.19 ± 0.02 µg Os / mg P
Time-dependent Os accumulation (Mtb H37Rv cells; 1.5 h, 310 K): 0.287 ± 0.009 µg Os / mg P
Temperature-dependent Os accumulation (Mtb H37Rv cells; 3 h, 277 K): 0.030 ± 0.005 µg Os / mg P
Temperature-dependent Os accumulation (Mtb H37Rv cells; 3 h, 310 K): 0.27 ± 0.02 µg Os / mg P
Time-dependent Os accumulation (Mtb H37Rv cells; 3 h, 310 K): 0.51 ± 0.04 µg Os / mg P
Temperature-dependent Os accumulation (Mtb H37Rv cells; 5 h, 277 K): 0.033 ± 0.005 µg Os / mg P
Temperature-dependent Os accumulation (Mtb H37Rv cells; 5 h, 310 K): 0.31 ± 0.03 µg Os / mg P
Time-dependent Os accumulation (Mtb H37Rv cells; 5 h, 310 K): 0.67 ± 0.01 µg Os / mg P
Temperature-dependent Os accumulation (Mtb H37Rv cells; 7 h, 277 K): 0.052 ± 0.005 µg Os / mg P
Temperature-dependent Os accumulation (Mtb H37Rv cells; 7 h, 310 K): 0.36 ± 0.01 µg Os / mg P
Time-dependent Os accumulation (Mtb H37Rv cells; 7 h, 310 K): 0.64 ± 0.02 µg Os / mg P
Temperature-dependent Os accumulation (Mtb H37Rv cells; 17 h, 277 K): 0.12 ± 0.02 µg Os / mg P
Temperature-dependent Os accumulation (Mtb H37Rv cells; 17 h, 310 K): 0.37 ± 0.01 µg Os / mg P
Time-dependent Os accumulation (Mtb H37Rv cells; 17 h, 310 K): 0.39 ± 0.05 µg Os / mg P
Temperature-dependent Os accumulation (Mtb H37Rv cells; 20 h, 277 K): 0.14 ± 0.02 µg Os / mg P
Temperature-dependent Os accumulation (Mtb H37Rv cells; 20 h, 310 K): 0.38 ± 0.04 µg Os / mg P
Time-dependent Os accumulation (Mtb H37Rv cells; 20 h, 310 K): 0.30 ± 0.01 µg Os / mg P
Time-dependent Os accumulation (Mtb H37Rv cells; 24 h (1 day), 310 K): 0.24 ± 0.02 µg Os / mg P
Temperature-dependent Os accumulation (Mtb H37Rv cells; 24 h, 277 K): 0.211 ± 0.004 µg Os / mg P
Temperature-dependent Os accumulation (Mtb H37Rv cells; 24 h, 310 K): 0.37 ± 0.05 µg Os / mg P
Time-dependent Os accumulation (Mtb H37Rv cells; 168 h (7 days), 310 K): 0.02 ± 0.02 µg Os / mg P
decrease of intracellular Os accumulation compared with 310 K (mammalian cells; 277 K): 31 fold
decrease of intracellular Os accumulation compared with 310 K (mammalian cells; 296 K): 4 fold
